Experimental data as given in paper PMC7993833, “EDP-938, a novel nucleoprotein inhibitor of respiratory syncytial virus, demonstrates potent antiviral activities in vitro and in a non-human primate model” (PLoS Pathogens, 2021).

The compounds below were run on RSV-A Long (assay: In vitro resistance selection by viral passage). Settings: viral passage with increasing concentrations.
Assay type: cell-based, respiratory syncytial virus

| Structure (SMILES) | concentration reached during selection of resistance mutants |
| --- | --- |
| O=C(NC1CC1)c1cc2c(s1)-c1ccccc1N(C(=O)c1ccc(NC(=O)c3cccnc3N3CCC4(CC3)COC4)cc1)CC2 [AZ-27] | 1,024 x EC50 |
| O=C1Nc2ccccc2C(c2ccccc2)=N[C@@H]1Nc1nnc(-c2ncc(C(F)(F)F)cc2N2CCOCC2)o1 [EDP-938] | up to 64 x EC50 |
| Cc1cn2nc([C@@H]3CCCCN3C(=O)c3cc(Cl)ccc3NS(C)(=O)=O)cc2nc1N1CC[C@H](N)C1 [GS-5806] | 16,384 x EC50 |
